Anti-infective test results gathered from many reports (values: NIAID ChemDB through PubChem).

Common to all: host cell toxicity; cells: CEM; measure: CC50

Rows are shuffled and stem from different studies. Blank or dashed fields: not listed here. CCn: concentration that lowers growth or viability of the cells by n%.

smiles | method | result
COc1ccc(/C=C(/C#N)Sc2cccc[n+]2[O-])cc1 | cell count | 35 µg/mL
O=C(O)C(SC1=NNC2(C(=O)N1)c1ccccc1-c1ccccc12)SC1=NNC2(C(=O)N1)c1ccccc1-c1ccccc12 |  | 15 µM
Cc1cc(S(=O)(=O)n2cccc2)c(SC(C(=O)O)c2ccccc2)cc1Cl | XTT | 31.8 µM
O=[N+]([O-])c1cc(CS(=O)(=O)c2cccc[n+]2[O-])cc([N+](=O)[O-])c1 | cell count | 4.4 µg/mL
COCn1c(Cc2cccc3ccccc23)c(C)c(=O)[nH]c1=O |  | 127 µM
O=C1N=C2SC=C(NC(=S)Nc3ccccc3)N2NC12c1ccccc1-c1ccccc12 |  | 82 µM
O=C(O)CCCCCCCCCCCc1ncc[nH]1 |  | >100 µg/mL
C=C(C)[C@@H]1CC[C@]2(C(=O)NCCCCCCCNC(=O)CCC(=O)O)CC[C@]3(C)[C@H](CC[C@@H]4[C@@]5(C)CC[C@H](O)C(C)(C)[C@@H]5CC[C@]43C)[C@@H]12 |  | >3 µM
Cc1ccc(C)c(CS(=O)c2cccc[n+]2[O-])c1C | cell count | 1.2 µg/mL
C=CCNC(=O)NC(=O)CSC1=NNC2(C(=O)N1)c1ccccc1-c1ccccc12 |  | 31 µM
O=C(Nc1ccc(O)cc1)c1ccccc1SSc1ccccc1C(=O)Nc1ccc(O)cc1 |  | 33 µM
C=C(C)[C@@H]1CC[C@]2(C(=O)NCCCCCCCC(=O)N[C@H](CCC(=O)O)CC(C)C)CC[C@]3(C)[C@H](CC[C@@H]4[C@@]5(C)CC[C@H](O)C(C)(C)[C@@H]5CC[C@]43C)[C@@H]12 |  | >3 µM
CCC(c1cc(C)ccc1C)S(=O)(=O)c1c(C)ccc[n+]1[O-] | cell count | 20 µg/mL
CCCCCCCCNC(=O)CCCC(=O)O |  | 26 µg/mL
O=C1NC(SC(SC2=NNC3(C(=O)N2)c2ccccc2-c2ccccc23)=C(SC2=NNC3(C(=O)N2)c2ccccc2-c2ccccc23)SC2=NNC3(C(=O)N2)c2ccccc2-c2ccccc23)=NNC12c1ccccc1-c1ccccc12 |  | 79 µM
CC(c1ccc(Cl)cc1)S(=O)c1cccc[n+]1[O-] | cell count | 0.64 µg/mL
Cc1cn([C@@H]2O[C@@H]3CN[C@@]4(OCC(C)(C)C)CS(=O)(=O)O[C@@]34[C@H]2O)c(=O)[nH]c1=O |  | >250 µM
CCCCCOC(=O)CCCCCCC(=O)O |  | >100 µg/mL
CCC(=O)c1ccc2c(c1)sc(=O)n2Cc1ccccc1 |  | 4.8 µg/mL
c1ccc(COc2cccnc2SCc2ccccc2)cc1 | cell count | 9.7 µg/mL
CC(C)CNC(=O)c1ccccc1SSc1ccccc1C(=O)NCC(C)C |  | 4.6 µM
Cc1ccc(CSc2ccccn2)cc1C | cell count | 7.1 µg/mL
O=C(c1ccccc1SSc1ccccc1C(=O)N1CCCC1)N1CCCC1 |  | 25 µM
CCCCO[C@]12CS(=O)(=O)O[C@@]13[C@@H](CN2)O[C@@H](n1cc(C)c(=O)[nH]c1=O)[C@@H]3O |  | >125 µM
Cc1cc(C)c(CS(=O)c2cccc[n+]2[O-])c(C)c1 | cell count | 12 µg/mL
N#Cc1ccc(CSCC2(CSCc3ccc(C#N)cc3)NC(=O)NC2=O)cc1 |  | >15 µM
Cn1ccnc1CCCCCCCCCCCC(=O)O |  | 62 µg/mL
O=C1NC(=O)C(CS)(CSCc2ccccc2)N1 |  | >5 µM
CCCC[C@H](NC(=O)c1ccccc1SSc1ccccc1C(=O)N[C@@H](CCCC)C(=O)O)C(=O)O |  | 51 µM
Cc1cc(S(=O)(=O)N2CCNC2=O)c(SC(=O)c2ccccc2)cc1Cl | XTT | 75 µM
COc1cc(CS(=O)(=O)c2cccc[n+]2[O-])cc(OC)c1OC | cell count | 51 µg/mL
CCCc1c(Cc2cccc3ccccc23)n(COCC)c(=O)[nH]c1=O |  | 33.79 µM
C=C(C)[C@@H]1CC[C@]2(C(=O)NCCCCCCCCCCCCC(=O)O)CC[C@]3(C)[C@H](CC[C@@H]4[C@@]5(C)CC[C@H](O)C(C)(C)[C@@H]5CC[C@]43C)[C@@H]12 |  | >3 µM
Cc1ccc(C)c(C(C)S(=O)(=O)c2cc(C)cc[n+]2[O-])c1 | cell count | 25 µg/mL
CCS[C@]12CS(=O)(=O)O[C@@]13[C@@H](CN2)O[C@@H](n1cc(C)c(=O)[nH]c1=O)[C@@H]3O[Si](C)(C)C(C)(C)C |  | 80.6 µM
COc1ccc(CS(=O)(=O)c2cccc[n+]2[O-])cc1 | cell count | 31 µg/mL
O=C1NC(=O)C(CSCc2ccccn2)(CSCc2ccccn2)N1 |  | >100 µM
C=CCO[C@]12CS(=O)(=O)O[C@@]13[C@@H](CN2)O[C@@H](n1cc(C)c(=O)[nH]c1=O)[C@@H]3O[Si](C)(C)C(C)(C)C |  | 57.8 µM
C=C(C)[C@@H]1CC[C@]2(C(=O)NCCCCCCCCCCCC(=O)O)CC[C@]3(C)[C@H](CC[C@@H]4[C@@]5(C)CC[C@H](O)C(C)(C)[C@@H]5CC[C@]43C)[C@@H]12 |  | >3 µM
NC(=O)C[C@H](NC(=O)c1ccccc1SSc1ccccc1C(=O)N[C@@H](CC(N)=O)C(=O)O)C(=O)O |  | >100 µM
Cc1ccc(C)c(CSc2ccc(Cl)c[n+]2[O-])c1 | cell count | >100 µg/mL
O=C1NC(=S)NNC12c1ccccc1-c1ccccc12 |  | 44 µM
CCCc1c(Cc2ccc3ccccc3c2)n(COC)c(=O)[nH]c1=O |  | 54.4 µM
CC(C)C[C@@H](CO)NC(=O)c1ccccc1SSc1ccccc1C(=O)N[C@H](CO)CC(C)C |  | 12 µM
N#C/C(=C/c1ccc(Cl)cc1Cl)Sc1cccc[n+]1[O-] | cell count | 5.9 µg/mL
CC(C)(NC(=O)c1ccccc1SSc1ccccc1C(=O)NC(C)(C)C(=O)O)C(=O)O |  | >100 µM
C=C(C)[C@@H]1CC[C@]2(C(=O)NCCCC(=O)O)CC[C@]3(C)[C@H](CC[C@@H]4[C@@]5(C)CC[C@H](O)C(C)(C)[C@@H]5CC[C@]43C)[C@@H]12 |  | >3 µM
O=C(O)CCCNC(=O)c1ccccc1SSc1ccccc1C(=O)NCCCC(=O)O |  | >100 µM
CCCCC(=O)c1ccc2c(c1)sc(=O)n2CC=O |  | 4.1 µg/mL
CCCCCCCCC(=O)NCCCC(=O)O |  | 65 µg/mL
Cc1cc(S(=O)(=O)n2cccc2)c(SC/C(=N\NC(=O)Nc2ccccc2)c2ccc(Br)cc2)cc1Cl | XTT | 92.1 µM
Cc1cn([C@@H]2O[C@@H]3CN[C@@]4(C#N)CS(=O)(=O)O[C@@]34[C@H]2O[Si](C)(C)C(C)(C)C)c(=O)[nH]c1=O |  | 103 µM
CC[C@@H](C)[C@@H](NC(=O)c1ccccc1SSc1ccccc1C(=O)N[C@@H](C(=O)O)[C@H](C)CC)C(=O)O |  | 113 µM
CCO[C@]12CS(=O)(=O)O[C@@]13[C@@H](CN2)O[C@@H](n1cc(C)c(=O)[nH]c1=O)[C@@H]3O |  | >250 µM
COC(=O)c1ccc(CSCC2(CSCc3ccc(C(=O)OC)cc3)NC(=O)NC2=O)cc1 |  | >25 µM
CCCCCCCCC(=O)CCCCC(=O)O |  | 32 µg/mL
C=C(C)[C@@H]1CC[C@]2(C(=O)NCCCCCCCC(=O)NCC(O)CC(=O)O)CC[C@]3(C)[C@H](CC[C@@H]4[C@@]5(C)CC[C@H](O)C(C)(C)[C@@H]5CC[C@]43C)[C@@H]12 |  | >3 µM
Cc1ccc(C)c(CS(=O)(=O)c2cccc[n+]2[O-])c1 | cell count | 32 µg/mL
CC(=O)n1c(=O)sc2cc(C(=O)c3ccccc3)ccc21 |  | 6.1 µg/mL
Cc1ccccc1C(C#N)S(=O)c1cccc[n+]1[O-] | cell count | 0.67 µg/mL
O=C(c1cccc([N+](=O)[O-])c1)c1ccc2[nH]c(=O)oc2c1 |  | 36 µg/mL
O=[N+]([O-])c1ccc(O)c(CSc2cccc[n+]2[O-])c1 | cell count | 37 µg/mL
Nc1ccn([C@H]2C[C@@H](CO)[C@H](O)[C@@H]2O)c(=O)n1 |  | >100 µM
C=C(C)[C@@H]1CC[C@]2(C(=O)NCC(=O)O)CC[C@]3(C)[C@H](CC[C@@H]4[C@@]5(C)CC[C@H](O)C(C)(C)[C@@H]5CC[C@]43C)[C@@H]12 |  | >3 µM
CCCCC(=O)c1ccc2c(c1)oc(=O)n2CCN1CCCCC1 |  | 26 µg/mL
CCCCCCCC(c1cc(C)ccc1C)S(=O)(=O)c1cccc[n+]1[O-] | cell count | 3.4 µg/mL
CC(=O)NCCCCCCCCCCC(=O)O |  | 107 µg/mL
C=C(C)[C@@H]1CC[C@]2(C(=O)NCCCCCCC(=O)O)CC[C@]3(C)[C@H](CC[C@@H]4[C@@]5(C)CC[C@H](O)C(C)(C)[C@@H]5CC[C@]43C)[C@@H]12 |  | >3 µM
Cc1ccc(C)c(C(Cl)S(=O)(=O)c2ccccn2)c1 | cell count | 38 µg/mL
CC(C)[C@@H](/C=C/C(=O)O)NC(=O)c1ccccc1SSc1ccccc1C(=O)N[C@H](/C=C/C(=O)O)C(C)C |  | 74 µM
Cc1cc(S(=O)(=O)n2cccc2)c(SCC#N)cc1Cl | XTT | >200 µM
O=S(=O)(Cc1c(Cl)c(Cl)c(Cl)c(Cl)c1Cl)c1cccc[n+]1[O-] | cell count | 1.2 µg/mL
COCn1c(Cc2cccc3ccccc23)c(C(C)C)c(=O)[nH]c1=O |  | 52 µM

Repeating the first 9 entries:

smiles	method	result
COc1ccc(/C=C(/C#N)Sc2cccc[n+]2[O-])cc1	cell count	35 µg/mL
O=C(O)C(SC1=NNC2(C(=O)N1)c1ccccc1-c1ccccc12)SC1=NNC2(C(=O)N1)c1ccccc1-c1ccccc12		15 µM
Cc1cc(S(=O)(=O)n2cccc2)c(SC(C(=O)O)c2ccccc2)cc1Cl	XTT	31.8 µM
O=[N+]([O-])c1cc(CS(=O)(=O)c2cccc[n+]2[O-])cc([N+](=O)[O-])c1	cell count	4.4 µg/mL
COCn1c(Cc2cccc3ccccc23)c(C)c(=O)[nH]c1=O		127 µM
O=C1N=C2SC=C(NC(=S)Nc3ccccc3)N2NC12c1ccccc1-c1ccccc12		82 µM
O=C(O)CCCCCCCCCCCc1ncc[nH]1		>100 µg/mL
C=C(C)[C@@H]1CC[C@]2(C(=O)NCCCCCCCNC(=O)CCC(=O)O)CC[C@]3(C)[C@H](CC[C@@H]4[C@@]5(C)CC[C@H](O)C(C)(C)[C@@H]5CC[C@]43C)[C@@H]12		>3 µM
Cc1ccc(C)c(CS(=O)c2cccc[n+]2[O-])c1C	cell count	1.2 µg/mL